{"source": "PubChem BioAssay AID624099 (ICCB-Longwood, 2012)", "purpose": "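Knock-downs relieving repression by E2 of an HPV18 LCR luciferase reporter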 (primary screen)", "cells": "human C33A cervical carcinoma cells (HPV-negative) stably expressing BPV1 E2 and an HPV18 LCR luciferase reporter", "reagents": "siRNA pool against human genes, 40 nM", "duration": "72 h", "read-out": "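Per-well luciferase luminescence, z-scored on each plate against the plate mean and SD with control wells left out, then averaged across three replicate plates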", "direction": "mean z-score and z-score: higher = stronger reporter signal, weaker E2 silencing", "hit rule": "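Hit if mean z-score reaches 2 and two or more of three replicate z-scores also reach 2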", "note": "The whole screen tested about 21,000 reagents; below is a part drawn at random. Of all reagents, 497 (2.4%) were called active. 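Higher z means weaker E2 silencing; only reporter increases were scored, and knock-downs that hurt cell survival may mask genuine repressor factors.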 Reagent sequences are not shown."}
{"gene": "KBTBD2", "mean z-score": 1.09, "z-score, replicate A": 1.1, "z-score, replicate B": 0.93, "z-score, replicate C": 1.23, "call": "inactive"}
{"gene": "ESPNL", "mean z-score": -1.13, "z-score, replicate A": -0.93, "z-score, replicate B": -1.24, "z-score, replicate C": -1.21, "call": "inactive"}
{"gene": "H1-10", "mean z-score": -0.61, "z-score, replicate A": -0.46, "z-score, replicate B": -0.45, "z-score, replicate C": -0.93, "call": "inactive"}
{"gene": "CCDC51", "mean z-score": 2.01, "z-score, replicate A": 2.01, "z-score, replicate B": 2.07, "z-score, replicate C": 1.96, "call": "active"}
{"gene": "LOC389685 (retired record)", "mean z-score": 1.15, "z-score, replicate A": 1.06, "z-score, replicate B": 1.22, "z-score, replicate C": 1.19, "call": "inactive"}
{"gene": "EMC7", "mean z-score": 1.96, "z-score, replicate A": 2.02, "z-score, replicate B": 1.54, "z-score, replicate C": 2.32, "call": "inactive"}
{"gene": "EFTUD2", "mean z-score": -0.45, "z-score, replicate A": -0.41, "z-score, replicate B": -0.7, "z-score, replicate C": -0.25, "call": "inactive"}
{"gene": "LRATD2", "mean z-score": -0.02, "z-score, replicate A": 0.26, "z-score, replicate B": -0.26, "z-score, replicate C": -0.05, "call": "inactive"}
{"gene": "SERTAD4", "mean z-score": -0.63, "z-score, replicate A": -0.4, "z-score, replicate B": -0.78, "z-score, replicate C": -0.72, "call": "inactive"}
{"gene": "LOC391553 (retired record)", "mean z-score": 0.14, "z-score, replicate A": 0.29, "z-score, replicate B": 0.12, "z-score, replicate C": 0.03, "call": "inactive"}
{"gene": "CRMP1", "mean z-score": 1.14, "z-score, replicate A": 0.97, "z-score, replicate B": 1.24, "z-score, replicate C": 1.22, "call": "inactive"}
{"gene": "AQP10", "mean z-score": 0.6, "z-score, replicate A": 0.71, "z-score, replicate B": 0.42, "z-score, replicate C": 0.66, "call": "inactive"}
{"gene": "PCID2", "mean z-score": -2.3, "z-score, replicate A": -2.58, "z-score, replicate B": -2.14, "z-score, replicate C": -2.19, "call": "inactive"}
{"gene": "RSF1", "mean z-score": 0.91, "z-score, replicate A": 0.77, "z-score, replicate B": 1.2, "z-score, replicate C": 0.78, "call": "inactive"}

Entries listed so far whose gene name starts with C or c:
{"gene": "CCDC51", "mean z-score": 2.01, "z-score, replicate A": 2.01, "z-score, replicate B": 2.07, "z-score, replicate C": 1.96, "call": "active"}
{"gene": "CRMP1", "mean z-score": 1.14, "z-score, replicate A": 0.97, "z-score, replicate B": 1.24, "z-score, replicate C": 1.22, "call": "inactive"}
